Laboratory results from patent US20040254162A1, “Oxazolidinone derivatives as antimicrobials” (priority 2001, published 2004).

Test system: Clostridium perfringens
Type: cell-based
Conditions: single isolates, anaerobic agar dilution

CC1(C)S[C@@H]2[C@H](NC(=O)[C@H](N)c3ccc(O)cc3)C(=O)N2[C@H]1C(=O)O [Amox]
MIC Clostridium perfringens: <=.125 μg/ml
